PubChem BioAssay AID504761 | Drosophila RNAi Screening Center, 2011
In all, the deposit lists about 22,000 reagents; below is an unselected part of those with a known target gene and a result. Of all reagents, 116 (0.52%) got an active call. 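Calls depend on retest data that are not deposited; infection was ranked per plate without normalising between plates; the unit of the infection score is not given.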 The raw values are shown without normalisation. Unmarked entries are inactive. Reagents against one gene are numbered here. A plus sign joins genes that one reagent is predicted to hit. Reagent sequences are not shown. Not given: the amount of reagent, the time to read-out.

Test: 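Genome-wide fly cell screen for genes dengue virus requires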 (primary screen)
System: D.Mel-2 cells from Drosophila
Knock-down reagent: long dsRNA against Drosophila genes
Challenge: infection with dengue virus type 2; dose and infection time not stated
Read-out: 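Per well on two replicate plates, imaging gave the percent of cells positive for viral envelope protein, ranked by infection, and a nuclear count of cells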
Scale: infection score: higher = more virus-infected cells; cell count: higher = more cells in the well
Active means: 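Low infection ranks in the two replicates (chance level up to 0.065) followed by a retest with a 1.5-fold or larger significant decrease, p below 0.05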
Calls: active = confirmed: knock-down lowers infection; inactive = not picked or not confirmed

Gene,reagent no.,"infection score, replicate 1","infection score, replicate 2","cell count, replicate 1","cell count, replicate 2"
CG1764,1,1.06,6.02,6870,6956
CG4074,1,5.28,4.12,6331,6328
CG4074,2,15.1,6.15,6467,6179
mRpL21,1,6.23,12.7,4798,4736
mRpL22,1,11.8,11.3,4478,4627
mRpL22,2,1.3,0.95,5762,5564
CG13457,1,0.86,1.35,6146,6604
CG13457,2,5.62,8.5,6276,5891
CG5381,1,6.73,,6316,390
DJ-1alpha,1,3.89,15.2,6936,6491
Pngl,1,8.59,8.29,6341,6503
papi,1,6.65,15.9,5921,4962
mura,1,1.53,1.3,6408,6861
mura,2,1.46,5.69,6453,5918
Tmtc2,1,2.47,5.63,7003,6609
parvin,1,3.31,6.58,3869,5166
parvin,2,22,12.5,4462,3685
CG9130 + CG9133,1,11.3,4.31,6447,7037
CG9130 + CG9133,2,6.04,13.2,6948,6171
CG9130 + CG9133,3,7.85,7.17,2051,6414
CG9130 + CG9133,4,23.5,6.7,5696,6017
fig,1,1.68,15.1,3096,3210
fig,2,2.5,3.04,6439,5917
l(2)k09913,1,4.61,19.3,6839,5287
Odc2,1,5.59,17.1,6364,5907
Odc2,2,3.52,3.59,6271,5847
Bx42,1,17.1,33.1,1536,1614
Bx42,2,30.4,33.3,2852,6080
Eaat1,1,11.5,7.18,5621,6250
Osi6,1,5.78,6.88,6591,6160
Osi6,2,2.82,5.72,6072,6362
CG2211,1,2.14,1.06,6075,6321
Ref1,1,15.1,11.9,5436,6186
Ref1,2,2.33,6.82,5961,6558
Tdc2,1,17,2.26,6019,7003
Tdc2,2,,,359,254
CheB38c,1,2.48,16.3,6817,4715
mRpL33,1,19.8,4.89,4947,6519
CG30324,1,9.25,23.1,7059,5789
CG30324,2,5.98,5.74,6605,6552

Reformatted: entries from further up.
{"Gene": "Bx42", "reagent no.": 1, "infection score, replicate 1": 17.1, "infection score, replicate 2": 33.1, "cell count, replicate 1": 1536, "cell count, replicate 2": 1614}
{"Gene": "Bx42", "reagent no.": 2, "infection score, replicate 1": 30.4, "infection score, replicate 2": 33.3, "cell count, replicate 1": 2852, "cell count, replicate 2": 6080}
{"Gene": "Eaat1", "reagent no.": 1, "infection score, replicate 1": 11.5, "infection score, replicate 2": 7.18, "cell count, replicate 1": 5621, "cell count, replicate 2": 6250}
